Measurements reported in US20240199725A1 (KOREA UNIVERSITY RESEARCH AND BUSINESS FOUNDATION, published 2024).
Changes are numbered by the printed parent chain.

B1: scFv variant JS 1 (scFv, V domains shown)
VH: QVQLVQSGGGVVQPGSSLRLSCEASGFAIGDNALNWVRQAPGKGLEWVGYIRSNSYGGTAEYAASVKGRFTISRDESKNIAYLEMNSLRAEDTAVYYCARRAHYYGDSTYNPSWYFDLWGRGTPVTVSS
VL: EIVLTQSPSFLSASVGDRVTITCRASQDVSRRLAWYQRKPGKAPKLLIYGVSNLASGVPSRFTGSGSGTEFTLTISSLQSDDFATYYCQQGYSSPRTFGQGTKVDIK
B2: scFv variant JS 4 (scFv, V domains shown)
VH: B1 VH with Y82C, D107G
VL: B1 VL with S14F, V29I, R31G, P40L, V51A
B3: scFv variant JS 3 (scFv, V domains shown)
VH: B1 VH with D31G, D107G
VL: B1 VL with V29I, Y49F, V51A, G57R, S93G
B4: scFv variant JS 2 (scFv, V domains shown)
VH: B1 VH with G49D, D107G, R121H
VL: B1 VL with S12F, V29I, V51A

Target: T1, COVID-19-RBD-GST (SARS-CoV-2 (COVID-19 virus), wild type)
T1 construct: also called dimeric RBD fused with a GST tag; COVID-19-RBD-GST-Alexa488 probe
Test: flow cytometry, variant on spheroplasts, 50 nM COVID-19 RBD-Alexa 488 antigen

Row | Binder | binding result
1 | B1 | binds
2 | B2 | binds
3 | B3 | binds
4 | B4 | binds
